In publication PMC12066977, “Alkyl Tail Variation on Chalcone‐Based Quaternary Pyridinium Salts as Rule‐of‐Thumb for Antimicrobial Activity” (Archiv Der Pharmazie, 2025):

Experiments:
E. coli ATCC 25922 = experiment: Broth microdilution antimicrobial assay (MIC, IC50); assay type: cell-based, Escherichia coli; conditions: Selectivity index SI = CC50 (Vero cells)/IC50
Experimental: (§1) Reference strains of Staphylococcus aureus (ATCC 25923), Escherichia coli (ATCC 25922), and Candida albicans (ATCC 10231) were used in this study as microbial models. These strains were purchased from the American Type Culture Collection (ATCC); bacterial cultures were routinely grown on 5% blood agar plate, while fungal cultures on Sabouraud Dextrose Agar (Biolife […]., Milan, Italy). […] In short, microbial inocula were prepared at 0.5 McFarland in PBS and, subsequently, bacterial suspensions were diluted 1:200 in Mueller-Hinton broth (Sigma-Aldrich, St. Louis, MO, USA), while fungal inoculum was diluted 1:20 in RPMI-1640 medium (Gibco®, ThermoFisher Scientific Inc., Waltham, MA, USA), containing glucose 2%, 0.3% levo-glutamine buffered to pH 7.0 with 0.165 M 3-(N-morpholino) propanesulfonic acid (MOPS). A total of 100 μL of these microbial suspensions was introduced into a 96-well microplate and incubated with 100 μL of the compounds, two-fold serially diluted in the range of 100-0.19 μM. Positive controls (microbial suspensions in regular media), negative controls (only compounds), and solvent controls (microbial suspensions incubated with DMSO dilutions) were included in the tests. The plate was incubated at 37°C for 24 h, and subsequently the optical density at 630 nm (OD630nm) was spectrophotometrically measured. Experiments were carried out in triplicate in three biological replicates. […] Statistical analysis was carried out by using GraphPad Prism version 9.4.1 for Windows (GraphPad Software, San Diego, California USA, www.graphpad.com). ^a MIC (Minimum Inhibitory Concentration) were determined in vitro by means of a standardized microdilution assay, in compliance with the Clinical and laboratory Standard Institute (CLSI) guidelines (30). Microbial suspensions were prepared at 0.5 McFarland in PBS, then diluted in the media and transferred in a 96 micro-well plate together with the serially 2-fold dilutions of the compounds. After 24h of incubation at 37°C, microbial growths were evaluated by measuring the Optical Density at 600 nm, then percentage values were obtained as relative to the positive controls (microbial suspensions in regular media).

S. aureus ATCC 25923 = experiment: as above; assay type: cell-based, Staphylococcus aureus; conditions: Selectivity index SI = CC50 (Vero cells)/IC50
Experimental: as §1

C. albicans ATCC 10231 = experiment: as above; assay type: cell-based, Candida albicans; conditions: Selectivity index SI = CC50 (Vero cells)/IC50
Experimental: as §1

[1] = test system: S. aureus ATCC 25923, E. coli ATCC 25922, C. albicans ATCC 10231; experiment: Broth microdilution antimicrobial assay, statements pooled over the three strains; assay type: cell-based; conditions: SI = CC50 (Vero cells)/IC50; stated over S. aureus, E. coli and C. albicans together
Experimental: The antimicrobial activity of the compounds was assessed by determining the Minimum Inhibitory Concentration (MIC) by a well‐established broth microdilution procedure in microtiter plates and in compliance with the Clinical and Laboratory Standards Institute (CLSI) guidelines.
In short, microbial inocula were prepared at 0.5 McFarland in PBS and, subsequently, bacterial suspensions were diluted 1:200 in Mueller–Hinton broth (Sigma‐Aldrich, St. Louis, MO, USA), while fungal inoculum was diluted 1:20 in RPMI‐1640 medium (Gibco®, ThermoFisher Scientific Inc., Waltham, MA, USA), containing glucose 2%, 0.3% levo‐glutamine buffered to pH 7.0 with 0.165 M 3‐(N‐morpholino) propanesulfonic acid (MOPS). A total of 100 µL of these microbial suspensions was introduced into a 96‐well microplate and incubated with 100 µL of the compounds, two‐fold serially diluted in the range of 100–0.19 µM. Positive controls (microbial suspensions in regular media), negative controls (only compounds), and solvent controls (microbial suspensions incubated with DMSO dilutions) were included in the tests. The plate was incubated at 37°C for 24 h, and subsequently the optical density at 630 nm (OD630nm) was spectrophotometrically measured. Experiments were carried out in triplicate in three biological replicates. […]

| SMILES | SI Escherichia coli (E. coli ATCC 25922) | SI Staphylococcus aureus (S. aureus ATCC 25923) | SI Candida albicans (C. albicans ATCC 10231) | SI values for the different species [1] |
| --- | --- | --- | --- | --- |
| Br.C#CCOc1ccc(C(=O)/C=C/c2cccnc2)c(OCC#C)c1 [Compound 9, (E)‐3‐{3‐[2,4‐Bis(prop‐2‐yn‐1‐yloxy)phenyl]‐3‐oxoprop‐1‐en‐1‐yl}pyridin‐1‐ium bromide] | < 1 | < 1 | < 1 |  |
| C#CCOc1ccc(C(=O)/C=C/c2ccc[n+](CCCCCCCCCCCCCC)c2)c(OCC#C)c1.[Br-] [Compound 6, (E)‐3‐{3‐[2,4‐Bis(prop‐2‐yn‐1‐yloxy)phenyl]‐3‐oxoprop‐1‐en‐1‐yl}‐1‐tetradecylpyridin‐1‐ium bromide] |  | 4.7 | 4.7 |  |
| C#CCOc1ccc(C(=O)/C=C/c2ccc[n+](CCCCCC[n+]3cccc(/C=C/C(=O)c4ccc(OCC#C)cc4OCC#C)c3)c2)c(OCC#C)c1.[Br-].[Br-] [Compound 10, 1,1′‐(Hexane‐1,6‐diyl)bis{3‐[(E)‐3‐(2,4‐bis‐prop‐2‐yn‐1‐yloxyphenyl)‐3‐oxoprop‐1‐en‐1‐yl]pyridin‐1‐ium} bromide] | > 2 | > 2 | > 1 |  |
| C#CCOc1ccc(C(=O)/C=C/c2ccc[n+](CCCCCCCCCCCCCCCC)c2)c(OCC#C)c1 [Compound 7, (E)‐3‐{3‐[2,4‐Bis(prop‐2‐yn‐1‐yloxy)phenyl]‐3‐oxoprop‐1‐en‐1‐yl}‐1‐hexadecylpyridin‐1‐ium] | < 1 | 1.3 | < 1 |  |
| C#CCOc1ccc(C(=O)/C=C/c2ccc[n+](CCCCCCCCCCCC)c2)c(OCC#C)c1.[Br-] [Compound 5, (E)‐3‐{3‐[2,4‐Bis(prop‐2‐yn‐1‐yloxy)phenyl]‐3‐oxoprop‐1‐en‐1‐yl}‐1‐dodecylpyridin‐1‐ium bromide] | 2.4 | 8.6 | 8.9 | 2.4 to 15.3 |
| C#CCOc1ccc(C(=O)/C=C/c2ccc[n+](CCCCCC)c2)c(OCC#C)c1.[Br-] [Compound 2, (E)‐3‐{3‐[2,4‐Bis(prop‐2‐yn‐1‐yloxy)phenyl]‐3‐oxoprop‐1‐en‐1‐yl}‐1‐hexylpyridin‐1‐ium bromide] | > 1 | > 2 | > 1 |  |
| C#CCOc1ccc(C(=O)/C=C/c2ccc[n+](CCCCCCCCCCCCCCCCCC)c2)c(OCC#C)c1.[Br-] [Compound 8, (E)‐3‐{3‐[2,4‐Bis(prop‐2‐yn‐1‐yloxy)phenyl]‐3‐oxoprop‐1‐en‐1‐yl}‐1‐octadecylpyridin‐1‐ium bromide] | < 1 | < 1 | < 1 |  |
| C#CCOc1ccc(C(=O)/C=C/c2cccnc2)c(OCC#C)c1 [Compound 1] | < 1 | < 1 | < 1 |  |
| C#CCOc1ccc(C(=O)/C=C/c2ccc[n+](CCCCCCCCCC)c2)c(OCC#C)c1.[Br-] [Compound 4, (E)‐3‐{3‐[2,4‐Bis(prop‐2‐yn‐1‐yloxy)phenyl]‐3‐oxoprop‐1‐en‐1‐yl}‐1‐decylpyridin‐1‐ium bromide] | 2.9 | 15.3 | 3.0 | 2.4 to 15.3 |
| C#CCOc1ccc(C(=O)/C=C/c2ccc[n+](CCCCCCCC)c2)c(OCC#C)c1.[Br-] [Compound 3, (E)‐3‐{3‐[2,4‐Bis(prop‐2‐yn‐1‐yloxy)phenyl]‐3‐oxoprop‐1‐en‐1‐yl}‐1‐octylpyridin‐1‐ium bromide] | 4.3 | 17.7 | 1.5 |  |
